Measured values from several laboratories, pooled; numbers as filed in NIAID ChemDB.

Shared fields: target-level tests

Conditions beyond the fields shown may differ between rows. Inhibition is in % at the dose shown (toxicity tests: loss of growth or viability). ICn: concentration for n% inhibition. a–b is a range or a potency band. An empty or dashed field is not shown. Fold resistance has wild type as its base.

structure,agent,strain,changes,protein,read by,measure,tested at,result
Nc1nc2c(ncn2[C@@H]2O[C@H](COP(=O)(O)O[C@H]3[C@@H](F)[C@H](n4cnc5c(NCc6ccc7ccccc7c6)ncnc54)O[C@@H]3CO)[C@@H](O)[C@H]2O)c(=O)[nH]1,HIV-1,,,RNase H,RNase H,inhibition,50 µM,80%
O=c1c(Cc2ccccc2)cn2ccn(Cc3cccc(Cl)c3)c(=O)c2c1O,HIV-1,,,Integrase,ELISA,IC50,,0.01–0.1 µM
COc1cccc(Cn2cccc2/C=C/C(=O)CC(=O)C(=O)O)c1,HIV-1,,R557A,RNase H,substrate cleavage / fluorescence,inhibition,100 µM,32%
Nc1ncnc2c1ncn2[C@@H]1O[C@H](CO)[C@@H](OP(=O)(O)OC[C@H]2O[C@@H](n3ccc(=O)[nH]c3=O)[C@H](O)[C@@H]2O)[C@H]1O,HIV-1,,,RNase H,RNase H,inhibition,50 µM,2%
c1csc(-c2nnc3c4ccccc4c(N4CCc5ccccc5C4)nn23)c1,HIV-1,KER2008,,Reverse transcriptase,RT activity / fluorescence,IC90,,>100 µM
O=c1ccn(C2OC(COP(=O)(O)OC3C(CO)OC(n4ccc(=O)[nH]c4=O)C3O)C(O)C2O)c(=O)[nH]1,HIV-1,,,RNase H,RNase H,inhibition,50 µM,3%
CCCCCCCCC[C@H]1O[C@@H]1C(=O)O,HIV-2,,,Protease,HPLC,IC50,,<500 µg/mL
CCN1c2ncc(CCOc3ccc(CC(=O)O)c4ccccc34)cc2C(=O)N(C)c2cccnc21,HIV-1,,RT-K103N Y181C,Reverse transcriptase,nucleotide incorporation / radiometric,fold resistance,,1–10
O=C(CCCCCCCCC(=O)Nc1ccc(S(=O)(=O)O)c2cccc(S(=O)(=O)O)c12)Nc1ccc(S(=O)(=O)O)c2cccc(S(=O)(=O)O)c12,HIV,,,Protease,fluorescence,IC50,,30 µM
COc1cc(Cn2ccn3ccc(=O)c(O)c3c2=O)ccc1Cl,HIV-1,,,Integrase,ELISA,IC50,,0.01–0.1 µM
Cc1nnc2c3ccccc3c(N3CCc4cccnc4C3)nn12,HIV-1,KER2008,,Reverse transcriptase,RT activity / fluorescence,IC90,,2.82 µM
Nc1nc2c(ncn2[C@@H]2O[C@H](COP(O)(=S)O[C@H]3[C@@H](F)[C@H](n4cnc5c(N)ncnc54)O[C@@H]3CO)[C@@H](O)[C@H]2O)c(=O)[nH]1,HIV-1,,,RNase H,RNase H,inhibition,50 µM,40%
CC(=O)Nc1cc2c(cc1OC(F)(F)F)CCN(c1nn3c(C)nnc3c3ccccc13)C2,HIV-1,KER2008,,Reverse transcriptase,RT activity / fluorescence,IC90,,0.96 µM
NC[C@H]1O[C@H](O[C@H]2[C@H](O)[C@@H](O[C@H]3O[C@H](CO)[C@@H](O)[C@H](N)[C@H]3O)[C@H](N)C[C@@H]2N)[C@H](O)[C@@H](O)[C@@H]1O,HIV-1,,,Rev:RRE,fluorescence,IC50,,750 µM
Nc1ccn([C@@H]2CS[C@H](COP(=O)(O)OP(=O)(O)OP(=O)(O)O)O2)c(=O)n1,HIV,,RT-K65R K103N,Reverse transcriptase,radiometric,fold resistance,,2
CCOC(=O)C(=O)CC(=O)/C=C/c1cccn1Cc1ccc(C)cc1C,HIV-1,,,RNase H,substrate cleavage / fluorescence,IC50,,8.2 µM
Nc1ccc2c(c1)CN(c1nn3c(-c4cccs4)nnc3c3ccccc13)CC2,HIV-1,IIIB,,Reverse transcriptase,RT activity / fluorescence,IC90,,12.5 µM
Nc1nc2c(ncn2[C@@H]2O[C@H](COCO[C@H]3[C@@H](O)[C@H](n4cnc5c(=O)[nH]c(N)nc54)O[C@@H]3CO)[C@@H](O)[C@H]2O)c(=O)[nH]1,HIV-1,,,RNase H,RNase H,inhibition,50 µM,65%
COC(=O)[C@H](CC(C)C)N1C[C@@H]2O[C@H](C1=O)[C@H](C(=O)N1CCN(C)CC1)O2,HIV-1,,,Protease,FRET,inhibition,1 µM,0%
CCCCN(CCCC)c1nc(OCCc2ccc([N+](=O)[O-])cc2)c2ncn([C@@H]3O[C@H](COP(O)(=S)O[C@H]4[C@@H](F)[C@H](n5cnc6c(N)ncnc65)O[C@@H]4CO)[C@@H](O)[C@H]3O)c2n1,HIV-1,,,RNase H,RNase H,Ki,,6.5 µM
CC(=O)Nc1ccc2c(c1)CN(c1nn3c(C4CC4)nnc3c3ccccc13)CC2,HIV-1,KER2008,,Reverse transcriptase,RT activity / fluorescence,IC90,,0.3 µM
Nc1nc2c(ncn2[C@@H]2O[C@H](COP(=O)(O)O[C@H]3[C@@H](O)[C@H](n4cnc5c(=O)[nH]c(N)nc54)O[C@@H]3CO)[C@@H](O)[C@H]2O)c(=O)[nH]1,HIV-1,,,RNase H,RNase H,inhibition,50 µM,89%
Cc1ccc(Cl)cc1Nc1nc(C(F)(F)F)ccc1C(=O)NN1CCN(c2cccc(Cl)c2)CC1,HIV-1,,A502F,RNase H,RNase H / absorbance,fold resistance,,2.6
CC[C@H](C)[C@@H](C(=O)OC)N1C[C@@H]2O[C@H](C(=O)N3CCCCC3)[C@@H](O2)C1=O,HIV-1,,,Protease,FRET,inhibition,10 µM,0%
CCN1c2ncc(CCOc3ccc(CC(=O)O)c4ccccc34)cc2C(=O)N(C)c2ccc(Cl)nc21,HIV-1,WT,,Reverse transcriptase,nucleotide incorporation / radiometric,IC50,,<0.1 µM
CC[C@H](C)[C@H](NC(=O)[C@@H]1CCCN1C[C@H](Cc1ccccc1)NC(=O)[C@H](CC(N)=O)NC(=O)[C@H](CCC(N)=O)NC(=O)[C@H](CO)NC(=O)[C@@H](N)C(C)C)C(=O)N[C@H](C(=O)O)C(C)C,HIV-2,,,Protease,,Ki,,26.1 µM
COC(=O)c1ccc2c(c1)CN(c1nn3c(C)nnc3c3ccccc13)CC2,HIV-1,KER2008,,Reverse transcriptase,RT activity / fluorescence,IC90,,8.36 µM
CC(=O)c1cn(Cc2cccc(Cl)c2)c(=O)c2c(O)c(=O)ccn12,HIV-1,,,Integrase,ELISA,IC50,,0.01–0.1 µM
NC(N)=NC[C@@H]1O[C@H](O[C@H]2[C@H](O)[C@@H](O[C@H]3O[C@@H](CO)[C@H](O)[C@@H](N=C(N)N)[C@@H]3O)[C@H](N=C(N)N)C[C@@H]2N=C(N)N)[C@@H](N=C(N)N)[C@H](O)[C@H]1O,HIV-1,,,Rev:RRE,fluorescence,IC50,,44 µM
O=C(O)c1cc(NS(=O)(=O)c2ccc(-c3ccc(S(=O)(=O)Nc4cc(C(=O)O)c(O)c(S(=O)(=O)O)c4)cc3)cc2)cc(S(=O)(=O)O)c1O,HIV,,,Protease,fluorescence,inhibition,275 µM,30%
NC(=O)c1cc(S(=O)(=O)Nc2nc3ccccc3c(=O)[nH]2)c(SCOc2ccccc2)cc1Cl,HIV,,,Integrase,strand transfer,IC50,,>100 µM
CCCC[C@@H](CN[C@@H](CCC(N)=O)C(=O)N[C@@H](CCCN=C(N)N)C(N)=O)NC(=O)[C@H](CCCC)NC(=O)C(NC(=O)C(NC(C)=O)[C@@H](C)O)[C@@H](C)CC,HIV,,PR-V82S,Protease,HPLC,IC50,,>2.17 µM
O=C(Nc1cn2c(c(O)c1=O)C(=O)N(Cc1cccc(Cl)c1)CC2)c1ccncc1,HIV-1,,,Integrase,ELISA,IC50,,0.01–0.1 µM
Cc1cn([C@H]2CC[C@@H](COP(=O)(O)OP(=O)(O)OP(=O)(O)OP(=O)(O)OC[C@@H]3CC[C@H](n4cc(C)c(=O)[nH]c4=O)O3)O2)c(=O)[nH]c1=O,HIV,,RT-M41L T215Y,Reverse transcriptase,nucleotide incorporation / radiometric,IC50,,3.3 µM
CCOCn1c(Sc2ccccc2)c(CC)c(=O)[nH]c1=O,HIV,,RT-V60T,Reverse transcriptase,nucleotide incorporation,fold resistance,,1.5
CNc1ccccc1C(=O)O[C@H]1[C@@H](O)[C@H](n2cnc3c(N)ncnc32)O[C@@H]1COP(=O)(O)OP(=O)(O)OP(=O)(O)OP(=O)(O)OC[C@@H]1CC[C@H](n2cnc3c(=O)[nH]c(N)nc32)O1,HIV,,RT-D67N K70R T215Y K219Q,Reverse transcriptase,nucleotide incorporation / radiometric,fold resistance,,0.0526
O=c1c(-c2cnccn2)cn2ccn(Cc3cccc(F)c3)c(=O)c2c1O,HIV-1,,,Integrase,ELISA,IC50,,0.01–0.1 µM
CCOC(=O)C1CCN(C(=O)[C@@H]2O[C@@H]3CN(Cc4ccccc4)C(=S)[C@H]2O3)CC1,HIV-1,,,Protease,FRET,inhibition,10 µM,0%
Nc1ncnc2c1ncn2[C@H]1CC[C@@H](COP(=O)(O)OP(=O)(O)OP(=O)(O)O)O1,HIV,,RT-T215Y,Reverse transcriptase,,fold resistance,,1.3
N#Cc1ccc2c(c1)CN(c1nn3c(C4CC4)nnc3c3ccccc13)CC2,HIV-1,98US_MSC5016,,Reverse transcriptase,RT activity / fluorescence,IC90,,3.55 µM
CCN1c2ncc(CCOc3ccc4cc(CC(=O)O)ccc4c3C)cc2C(=O)N(C)c2cccnc21,HIV-1,WT,,Reverse transcriptase,nucleotide incorporation / radiometric,IC50,,<0.1 µM
Cc1ccc(N=Nc2c(S(=O)(=O)O)cc3cc(S(=O)(=O)O)cc(Nc4nc(Cl)nc(N(C)c5ccccc5)n4)c3c2O)c(S(=O)(=O)O)c1,HIV-1,IIIB,,gp41,ELISA,IC50,,3.18 µg/mL
CCN1c2ncc(CCOc3ccc(C(=O)O)c4ccccc34)cc2C(=O)Nc2c(C)ccnc21,HIV-1,WT,,Reverse transcriptase,nucleotide incorporation / radiometric,IC50,,<0.1 µM
CC(C)=CCC/C(C)=C/CC/C(C)=C/CC/C(C)=C/CC/C(C)=C/CC/C(C)=C/Cc1cc(O)ccc1O,HIV-2,,,Reverse transcriptase,nucleotide incorporation,IC90,,2.6 µM
Nc1ccn([C@H]2CC[C@@H](COP(=O)(O)OP(=O)(O)OP(=O)(O)O)O2)c(=O)n1,HIV,,RT-M41L T215Y,Reverse transcriptase,nucleotide incorporation / radiometric,fold resistance,,1.2
N=[N+](N)C[C@H]1O[C@H](O[C@H]2[C@@H](O)[C@H](O[C@H]3[C@H](O)[C@@H]([N+](=N)N)C[C@@H](N=C(N)N)[C@H]3O[C@@H]3O[C@@H](CO)[C@H](O)[C@@H](O)[C@@H]3[N+](=N)N)O[C@@H]2CO)[C@@H](N=C(N)N)[C@H](O)[C@H]1O,HIV-1,,,Rev:RRE,fluorescence,IC50,,6 µM
CCN1c2ncc(CCOc3ccc(C(=O)O)c4c3CCN(C(=O)OC)C4)cc2C(=O)N(C)c2cccnc21,HIV-1,,RT-K103N Y181C,Reverse transcriptase,nucleotide incorporation / radiometric,IC50,,0.1–1 µM
CCCCCCC[C@H]1O[C@H]1CO,HIV-2,,,Protease,HPLC,IC50,,<500 µg/mL
CCN1c2ncc(CCOc3ccc(CC(=O)NN)c4ccccc34)cc2C(=O)N(C)c2cccnc21,HIV-1,,RT-K103N Y181C,Reverse transcriptase,nucleotide incorporation / radiometric,fold resistance,,1
Oc1ccc2c(c1)CN(c1nn3c(C4CC4)nnc3c3ccccc13)CC2,HIV-1,98US_MSC5016,,Reverse transcriptase,RT activity / fluorescence,IC90,,3.65 µM
CC(C)[C@H](NC(=O)[C@H](Cc1ccccc1)C[C@H](O)[C@H](Cc1ccccc1)NC(=O)OC(C)(C)C)C(=O)N[C@@H](Cc1ccccc1)C(=O)N1CCOCC1,HIV-2,,,Protease,,Ki,,0.00056 µM
N[C@H]1[C@@H](O[C@H]2[C@H](O)[C@@H](O)[C@H](N)C[C@@H]2N)O[C@H](CNC(=O)c2ccc3ccc4cccc5ccc2c3c45)[C@@H](O)[C@@H]1O,HIV-1,,,Rev:RRE,fluorescence,IC50,,19 µM
O=C(/C=C/c1cccn1Cc1ccccc1Cl)CC(=O)C(=O)O,HIV-1,,Y501A,RNase H,substrate cleavage / fluorescence,inhibition,100 µM,20%
COc1ccc(Cl)cc1Cn1ccn2ccc(=O)c(O)c2c1=O,HIV-1,,,Integrase,ELISA,IC50,,0.01–0.1 µM
Cc1cc(S(=O)(=O)NC2=NC3C=CSC3C(=O)N2)c(SCOc2ccccc2)cc1Cl,HIV,,,Integrase,strand transfer,IC50,,70 µM
CC(C)=CCN1Cc2cccc3[nH]c(=S)n(c23)C[C@@H]1C,HIV,,,Reverse transcriptase,nucleotide incorporation,Ki,,0.52 µM
O=C(O)c1cc(=O)c(O)c2n1CCN(Cc1ccc(Cl)c(Cl)c1)C2=O,HIV-1,,,Integrase,ELISA,IC50,,0.01–0.1 µM
CC[C@H](C)[C@H](NC(=O)[C@@H](C[C@H](O)[C@H](CC1CCCCC1)NC(=O)CC(C)(C)C)C(C)C)C(=O)NCc1ccccn1,HIV-2,,,Protease,,Ki,,1 µM
Nc1nc2c(ncn2[C@H]2CC[C@@H](COP(=O)(O)OP(=O)(O)OP(=O)(O)O)O2)c(=O)[nH]1,HIV,,RT-W88G,Reverse transcriptase,nucleotide incorporation / radiometric,fold resistance,,2
Cc1ccc(Cn2cccc2/C=C/C(=O)CC(=O)C(=O)O)c(C)c1,HIV-1,,,RNase H,substrate cleavage / fluorescence,IC50,,19.3 µM
NC[C@H]1O[C@H](O[C@H]2[C@H](O)[C@@H](O[C@H]3O[C@H](CO)[C@@H](O)[C@H](N)[C@H]3O)[C@H](N)C[C@@H]2N)[C@H](N)[C@@H](O)[C@@H]1O,HIV-1,,,Rev:RRE,fluorescence,IC50,,65 µM
Nc1nc2c(ncn2[C@H]2CC[C@@H](COP(=O)(O)OP(=O)(O)OP(=O)(O)O)O2)c(=O)[nH]1,HIV,,,Reverse transcriptase,,Ki,,0.028 µM
O=C(CCCCCCCCC(=O)Nc1cc(S(=O)(=O)O)cc2cc(S(=O)(=O)O)cc(O)c12)Nc1cc(S(=O)(=O)O)cc2cc(S(=O)(=O)O)cc(O)c12,HIV,,,Protease,fluorescence,IC50,,15 µM
CN(C)C(=O)c1cn(Cc2cccc(Cl)c2)c(=O)c2c(O)c(=O)ccn12,HIV-1,,,Integrase,ELISA,IC50,,0.01–0.1 µM
CC(C)C[C@@H](C(=O)O)N1C[C@@H]2O[C@H](C1=O)[C@H](C(=O)N1CCCCC1)O2,HIV-1,,,Protease,FRET,inhibition,1 µM,0%